Measured values from several laboratories, pooled; numbers as filed in NIAID ChemDB.

Inhibition is in % at the dose shown (toxicity tests: loss of growth or viability). A number after MIC or MFC names an inhibition level or a share of isolates. Blank or dashed fields: not listed here. Rows are shuffled and stem from different studies. MIC bound: limit read from a one-dose screen.

compound	species	target	kind	read-out	strain or isolate	method	dose	value
C=CCc1ccc(OC)c(OC)c1	Candida glabrata	-	culture	MIC90	2993	turbidity	-	350 µg/mL
CP(=O)(N/N=C/C(=O)O)c1ccccc1	Mycobacterium tuberculosis	-	culture	inhibition	H37Rv	BACTEC	12.5 µg/mL	0%
Clc1ccccc1CCNCCNC(c1ccccc1)c1ccccc1	Mycobacterium tuberculosis	-	culture	MIC	-	-	-	50 µM
NNC(=O)C1=CN(CCc2ccccc2)C=CC1	Mycobacterium tuberculosis	-	culture	inhibition	H37Rv	BACTEC	12.5 µg/mL	0%
C=CCN(CCNCCc1ccccc1Cl)C1CCCC1	Mycobacterium tuberculosis	-	culture	MIC	-	-	-	12.5 µM
Nc1ccc(I)cc1I	Mycobacterium tuberculosis	-	culture	MIC	H37Rv	-	-	25 µg/mL
CC1(C)C2CCC(=O)OC1CC2	Mycobacterium tuberculosis	-	culture	MIC	H37Rv	BACTEC	-	≥12.5 µg/mL
N#CC(c1ccccc1)C(CC(=O)c1ccccc1)c1ccccc1	Mycobacterium tuberculosis	-	culture	MIC	H37Rv	-	-	>100 µg/mL
C[C@@H]1[C@@H](NCCNC(c2ccccc2)c2ccccc2)C[C@H]2C[C@@H]1C2(C)C	Mycobacterium tuberculosis	-	culture	MIC	-	-	-	50 µM
O=[As](O)(O)c1ccccc1	Mycobacterium tuberculosis	-	culture	MIC	H37Rv	-	-	>100 µg/mL
C[C@@H]1[C@H]2C[C@@H](C[C@H]1NCCNCCCCc1ccccc1)C2(C)C	Mycobacterium tuberculosis	-	culture	MIC	-	-	-	50 µM
CC(C)CCCC(C)C1CCC2C3CCC4=CC(=O)CCC4(C)C3CCC12C	Mycobacterium tuberculosis	-	culture	MIC	H37Rv	-	-	>100 µg/mL
O=C(Nc1ccc(Cl)cc1)Nc1nnc2nc(C3(c4nc5nnc(NC(=O)Nc6ccc(Cl)cc6)n5[nH]c4=O)Cc4ccccc4C3=O)c(=O)[nH]n12	Mycobacterium tuberculosis	-	culture	MIC bound	H37Rv	BACTEC	-	>12.5 µg/mL
CC(CNCCC(c1ccccc1)c1ccccc1)NC[C@@H]1CC[C@H]2C[C@@H]1C2(C)C	Mycobacterium tuberculosis	-	culture	MIC	-	-	-	12.5 µM
O=S1(=O)c2ccccc2Oc2ccccc21	Mycobacterium tuberculosis	-	culture	MIC	H37Rv	-	-	>100 µg/mL
CC(C)=NNC(=O)C1CCN1C(c1ccccc1)c1ccccc1	Mycobacterium tuberculosis	-	culture	MIC bound	H37Rv	BACTEC	-	>12.5 µg/mL
Fc1ccc(N2CCCCC2)c(NC(=S)c2ccncc2)c1	-	EGFR (L858R)	host protein	inhibition	-	kinase activity	10 µM	4%
CC(CNCC(c1ccccc1)c1ccccc1)NCC12CC3CC(CC(C3)C1)C2	Mycobacterium tuberculosis	-	culture	MIC	-	-	-	25 µM
CN(C)c1ccc2nc3ccc(=[N+](C)C)cc-3oc2c1.[Cl-]	Mycobacterium tuberculosis	-	culture	MIC bound	H37Rv	BACTEC	-	>12.5 µg/mL
Cl.NCCCCOc1cccc(OCCCCN)c1	Mycobacterium tuberculosis	-	culture	MIC	H37Rv	-	-	>100 µg/mL
C[C@H](NCCNC(c1ccccc1)c1ccccc1)C1CCCCC1	Mycobacterium tuberculosis	-	culture	MIC	-	-	-	50 µM
NNC(=O)c1ccccc1NC(=O)c1ccccc1	Mycobacterium tuberculosis	-	culture	MIC	H37Rv	-	-	>100 µg/mL
Nc1nc(N)nc(-c2ccc([N+](=O)[O-])o2)n1	Mycobacterium tuberculosis	-	culture	MIC	ETA-R	-	-	>12.5 µg/mL
COc1ccc2nc(-c3ccc(Cl)cc3)cc(Cl)c2c1	Mycobacterium tuberculosis	-	culture	MIC	H37Rv	-	-	>100 µg/mL
COc1ccc(-n2c(N)c(C#N)c(C#N)c2-c2ccco2)cc1	Mycobacterium tuberculosis	-	culture	MIC bound	H37Rv	BACTEC	-	>6.25 µg/mL
O=S(=O)([O-])Nc1cccc(NS(=O)(=O)[O-])c1.[Na+].[Na+]	Mycobacterium tuberculosis	-	culture	MIC	H37Rv	-	-	>100 µg/mL
O=C(NC(N1CCN(c2cc3c(cc2F)c(=O)c(C(=O)O)cn3C2CC2)CC1)(C(F)(F)F)C(F)(F)F)c1ccccc1	Mycobacterium tuberculosis	-	culture	inhibition	H37Rv	resazurin	6.25 µg/mL	100%
CN(C(=O)CCC(=O)O)c1ccc(Cl)c2ccccc12	Mycobacterium tuberculosis	-	culture	MIC	H37Rv	-	-	50 µg/mL
COc1cccc(N=Nc2c(C)nn(C(=S)S)c2C)c1	Mycobacterium tuberculosis	-	culture	MIC bound	H37Rv	BACTEC	-	>12.5 µg/mL
CCCCCC(C)NCCNCc1ccccc1Sc1ccccc1CO	Mycobacterium tuberculosis	-	culture	MIC	-	-	-	50 µM
O=C(OCc1ccccc1)N1N=NC2C3CC(OCc4ccccc4)(OCc4ccccc4)C(O3)C21	Mycobacterium tuberculosis	-	culture	inhibition	H37Rv	BACTEC	12.5 µg/mL	0%
Cl.Nc1cccc(OCCCBr)c1	Mycobacterium tuberculosis	-	culture	MIC	H37Rv	-	-	>100 µg/mL
C[C@@H]1[C@H]2C[C@@H](C[C@H]1NCCNCC(c1ccccc1)c1ccccc1)C2(C)C	Mycobacterium tuberculosis	-	culture	MIC	-	-	-	6.25 µM

The last 3 rows once more:

compound	species	target	kind	read-out	strain or isolate	method	dose	value
O=C(OCc1ccccc1)N1N=NC2C3CC(OCc4ccccc4)(OCc4ccccc4)C(O3)C21	Mycobacterium tuberculosis	-	culture	inhibition	H37Rv	BACTEC	12.5 µg/mL	0%
Cl.Nc1cccc(OCCCBr)c1	Mycobacterium tuberculosis	-	culture	MIC	H37Rv	-	-	>100 µg/mL
C[C@@H]1[C@H]2C[C@@H](C[C@H]1NCCNCC(c1ccccc1)c1ccccc1)C2(C)C	Mycobacterium tuberculosis	-	culture	MIC	-	-	-	6.25 µM